Data as given in patent US5492896A, “Pseudopeptides having an antiviral action” (Bayer Aktiengesellschaft, priority 1993, dated 1996).

The compounds below were run on HCMV (Davis strain) (assay: Anti-HCMV screening test: spread of cytopathogenic effect in HELF cell cultures). Conditions: read-out: IC50 (μM) HCMV, concentration causing 50% inhibition of the CPE, HELF cells, 6 days.
Type: cell-based, human cytomegalovirus

In the case of `CCOC(=O)c1ccc(NC(=O)N[C@@H](CCCNC(N)=NS(=O)(=O)c2ccc(C)cc2)C(=O)N[C@H](C(=O)NC(C=O)Cc2ccccc2)C(C)C)cc1` (single isomer, unassigned), the IC50 is reported as 0.24 µM.

Each compound was assayed against HIV protease (HIV-1) (Human immunodeficiency virus type 1 group M subtype B, UniProt P04585) (assay: HIV-specific protease enzyme test (synthetic peptide cleavage, RP-HPLC)). Conditions: read-out: IC50 (RP-HPLC) (μM) HIV-1; 50% inhibition of protease activity; purified HIV protease, synthetic Gag cleavage-site peptide.
Experimental: This is documented by an HIV-specific protease enzyme test.
The results of the examples described below were determined by the HIV test system described in the following literature references [compare Hansen, J., Billich, S., Schulze, T., Sukrow, S. and Molling, K. (1988), EMBO Journal, volume 7, No. 6, pages 1785-1791]: purified HIV protease was incubated with a synthetic peptide which imitates a cutting site in the Gag precursor protein and represents an in vivo cleavage site of HIV protease. The cleavage products formed from the synthetic peptide were analysed by reverse phase high performance liquid chromatography (RP-HPLC). The IC50 values stated relate to the substance concentration which causes 50% inhibition of protease activity under the abovementioned test conditions.

First: CC(=O)c1ccc(NC(=O)N[C@@H](CCCNC(N)=NS(=O)(=O)c2ccc(C)cc2)C(=O)N[C@H](C(=O)N[C@H](CO)Cc2ccccc2)C(C)C)cc1
Second: CC(=O)c1ccc(NC(=O)N[C@@H](CCCNC(N)=NS(=O)(=O)c2ccc(C)cc2)C(=O)N[C@H](C(=O)NC(C=O)Cc2ccccc2)C(C)C)cc1 (single isomer, unassigned) [57]
The IC50 of the first is 120-fold lower: 0.013 µM for the first, 1.5 µM for the second. The first is the more potent here.

`CCCCOC(=O)CCNC(=O)N[C@@H](CCCNC(N)=NS(=O)(=O)c1ccc(C)cc1)C(=O)N[C@H](C(=O)N[C@H](CO)Cc1ccccc1)C(C)C` and `CCCCOC(=O)CCNC(=O)N[C@@H](CCCNC(N)=NS(=O)(=O)c1ccc(C)cc1)C(=O)N[C@H](C(=O)NC(C=O)Cc1ccccc1)C(C)C` (single isomer, unassigned) [51] are within 1.5-fold of each other in IC50: 1.6 µM for the first, 2.1 µM for the second.

Compared with `COC(C)(C)CNC(=O)N[C@@H](CCCNC(N)=NS(=O)(=O)c1ccc(C)cc1)C(=O)N[C@H](C(=O)NC(C=O)Cc1ccccc1)C(C)C` (stereo partly shown), `COC(=O)CCCNC(=O)N[C@@H](CCCNC(N)=NS(=O)(=O)c1ccc(C)cc1)C(=O)N[C@H](C(=O)NC(C=O)Cc1ccccc1)C(C)C` (single isomer, unassigned) [49] is 1.7-fold higher in IC50: 0.15 µM for the first, 0.26 µM for the second. The first is the more potent here.

First: Cc1c(C)c(S(=O)(=O)N=C(N)NCCC[C@H](NC(=O)OCC2c3ccccc3-c3ccccc32)C(=O)N[C@H](C(=O)N[C@H](CO)Cc2ccccc2)C(C)C)c(C)c2c1OC(C)(C)CC2
Second: Cc1ccc(S(=O)(=O)N=C(N)NCCC[C@H](NC(=O)OCc2ccccc2)C(=O)N[C@H](C(=O)N[C@H](CO)Cc2ccccc2)C(C)C)cc1
The IC50 of the first is 5800-fold lower: 0.0024 µM for the first, 14 µM for the second. The first is the more potent here.

Compared with `CCOC(=O)c1ccc(NC(=O)N[C@@H](CCCNC(N)=NS(=O)(=O)c2ccc(C)cc2)C(=O)N[C@H](C(=O)NC(C=O)Cc2ccccc2)C(C)C)cc1` (single isomer, unassigned), `CC(=O)c1ccc(NC(=O)N[C@@H](CCCNC(N)=NS(=O)(=O)c2ccc(C)cc2)C(=O)N[C@H](C(=O)NC(C=O)Cc2ccccc2)C(C)C)cc1` (single isomer, unassigned) [58] is 67-fold lower in IC50: 0.12 µM for the first, 0.0018 µM for the second.

First: COC(=O)CCCNC(=O)N[C@@H](CCCNC(N)=NS(=O)(=O)c1ccc(C)cc1)C(=O)N[C@H](C(=O)NC(C=O)Cc1ccccc1)C(C)C (single isomer, unassigned) [50]
Second: CCCCOC(=O)CCNC(=O)N[C@@H](CCCNC(N)=NS(=O)(=O)c1ccc(C)cc1)C(=O)N[C@H](C(=O)NC(C=O)Cc1ccccc1)C(C)C (single isomer, unassigned) [52]
The IC50 of the first is 86-fold lower: 0.14 µM for the first, 12 µM for the second. The first is the more potent here.
